Compound potency records, mixed from different reports. Data source: NIAID ChemDB in PubChem.

Shared fields: tests in culture; agent: Cryptococcus neoformans; measure: MIC

An empty or dashed field is not shown. Rows are shuffled and stem from different studies.

structure,strain,value
CC(C(O)(Cn1cncn1)c1ccc(F)cc1F)S(C)(=O)=O,R716 (AZOLE-R),10 µM
COc1cc(O)c2c(c1)C(=O)c1c(cc3c(c1O)-c1c(cc(C)c(C(=O)NC(CO)C(=O)O)c1O)[C@H](OC1OC(C)C(N(C)C)C(OC4OCC(O)C(O)C4O)C1O)[C@H]3O)C2=O,D49,1.6 µg/mL
CC[C@@]1(O)C[C@H](O[C@H]2C[C@H](N(C)C)[C@H](O[C@H]3C[C@H](O)[C@H](O[C@H]4CCC(=O)[C@H](C)O4)[C@H](C)O3)[C@H](C)O2)c2c(cc3c(c2O)C(=O)c2c(O)cccc2C3=O)[C@H]1C(=O)OC,G-3,1 µg/mL
COc1cccc(C2Sc3ccccc3C2CO)c1O,93/V,50 µg/mL
C[C@H](n1nnnc1CCN1CCN(Cc2ccccc2)CC1)[C@](O)(Cn1cncn1)c1ccc(F)cc1F,LA314,>16 µg/mL
N#CC1=C(N)OC2=C(CSc3ccccc32)C1c1ccc2c(c1)OCO2,25,12.5 µg/mL
COc1ccccc1/C=C1\COc2ccccc2C1=O,Farwania,25 µg/mL
COc1ccccc1N1CCN(CCc2nnnn2[C@@H](C)[C@](O)(Cn2cncn2)c2ccc(F)cc2F)CC1,LA314,4 µg/mL
C[C@@H](n1cnc2cc(Cl)ccc2c1=O)[C@](O)(Cn1cncn1)c1ccc(F)cc1F,Isolate 251.86,0.0098 µg/mL
CC[C@@]1(O)C(=O)OCc2c1cc1n(c2=O)Cc2cc3c(CN(C)C)c(O)ccc3nc2-1,Clinical isolate (capsule-negative),>100 µM
Cc1nnc(NS(=O)(=O)c2ccc(N)cc2)s1,IFM 49624,≥256 µg/mL
COc1ccccc1N1CCN(CCc2nnn(CC(O)(Cn3cncn3)c3ccc(F)cc3F)n2)CC1,LA314,>8 µg/mL
Clc1ccc(C(CCc2ccccc2Cl)Cn2ccnc2)c(Cl)c1,,<1 µg/mL
COc1ccc(O)c(C2Sc3ccccc3C2CO)c1,93/V,50 µg/mL
CCOc1nc2c(c(-c3ccc4ccccc4c3)c1C#N)CSc1ccc(Cl)cc1-2,25,100 µg/mL
C[C@@H](N1CCN(c2ccc(OCC(F)(F)C(F)F)cc2)C1=O)C(O)(Cn1cncn1)c1ccccc1F,TIMM1740,<0.016 µg/mL
O=C1/C(=C/c2ccc3c(c2)OCO3)CSc2ccc(Cl)cc21,Farwania,12.5 µg/mL
COc1ccc(CC(Cn2ccnc2)c2ccc(Cl)cc2Cl)cc1,,<1 µg/mL
COc1ccc(-c2c(C#N)c(OC)nc3c2CSc2ccccc2-3)cc1OC,Farwania,3 µg/mL
COc1cc(NS(=O)(=O)c2ccc(N)cc2)ncn1,IFM 49624,≥256 µg/mL
C[C@@H](N1CCN(c2ccc(C(F)(F)F)cc2)C1=O)C(O)(Cn1cncn1)c1ccc(F)cc1F,TIMM1855,0.03 µg/mL
N#CC1=C(N)OC2=C(CSc3ccc(Cl)cc32)C1c1ccccc1,93/V,50 µg/mL
OC(Cn1cncn1)(Cn1nnnc1CCN1CCN(c2ccccc2)CC1)c1ccc(F)cc1F,LA314,>16 µg/mL
CO[C@@H]1[C@@H](C)O[C@@H](OCC23CC4C(C)CCC4C4(C=O)CC2C=C(C(C)C)C43C(=O)O)[C@@H](O)C12OC(=O)[C@H](CCCCCCCC(=O)O)O2,ATCC66031,100 µg/mL
CC(=O)[C@]1(O)Cc2c(O)c3c(c(O)c2[C@@H](O[C@H]2C[C@H](N)[C@H](O)[C@H](C)O2)C1)C(=O)c1ccccc1C3=O,Clinical isolate (capsule-negative),7.42 µM
C[C@@H](N1CCN(c2ccc(OC(F)(F)C(F)F)cc2)C1=O)C(O)(Cn1cncn1)c1ccccc1F,TIMM1740,<0.016 µg/mL
C[C@@H](c1nc(-c2ccc(C#N)cc2)cs1)[C@](O)(Cn1cnnc1)c1ccc(F)cc1F,A25838,0.06 µg/mL
COc1ccc2c(c1)C(=O)/C(=C/c1ccccc1OC)CO2,Farwania,3 µg/mL
CN(C)c1ccc(C2Sc3ccccc3C2CO)cc1,Isolate 25,6 µg/mL
Cc1noc(NS(=O)(=O)c2ccc(N)cc2)c1C,IFM 49624,64 µg/mL
C[C@@H](n1ncn(-c2ccc(OCC(F)(F)C(F)F)cc2)c1=O)[C@](O)(Cn1cncn1)c1ccc(F)cc1F,DUMC 114.95,≤0.0313 µg/mL
COC1CC2CCC(C)C(O)(O2)C(=O)C(=O)N2CCCCC2C(=O)OC(C(C)CC2CCC(O)C(OC)C2)CC(=O)C(C)/C=C(\C)C(O)[C@@](OC)(N(O)C(=O)OCC(C)C)C(=O)C(C)CC(C)/C=C/C=C/C=C/1C,FRR1,>100 µg/mL
CCCCCOc1ccc(-c2ccc(-c3ccc(C(=O)N[C@H]4C[C@@H](O)[C@@H](O)NC(=O)[C@@H]5[C@@H](O)[C@@H](C)CN5C(=O)[C@H]([C@H](C)O)NC(=O)[C@H]([C@H](O)[C@@H](O)c5ccc(O)cc5)NC(=O)[C@@H]5C[C@@H](O)CN5C(=O)[C@H]([C@H](C)O)NC4=O)cc3)cc2)cc1,1041.007,>2 µg/mL
C[C@@H](n1ccn(-c2ccc(OC(F)(F)F)cc2)c1=O)C(O)(Cn1cncn1)c1ccc(F)cc1F,TIMM1740,0.03 µg/mL
Clc1ccc(C(CCc2ccc(Br)cc2)Cn2ccnc2)c(Cl)c1,,<1 µg/mL
O=C1/C(=C/c2ccc(O)cc2)CCc2ccccc21,Farwania,100 µg/mL
CCCOc1nc2c(c(-c3ccc4c(c3)OCO4)c1C#N)CSc1ccc(Cl)cc1-2,25,25 µg/mL
CCC/C=C/C=C/C=C/C(=O)OCC1O[C@@H](OC2C(CO)O[C@]3(OCc4cc(O)cc(O)c43)[C@H](O)[C@H]2OC(=O)/C=C/C=C/CC(O)/C=C/C=C/C=C/CCC)[C@H](O)[C@@H](O)[C@H]1O,D49,>100 µg/mL
CC[C@@H]([C@H](C)O)n1ncn(-c2ccc(N3CCN(c4ccc(OC[C@@H]5CO[C@@](Cn6cncn6)(c6ccc(F)cc6F)C5)cc4)CC3)cc2)c1=O,DUMC136.89,0.125 µg/mL
COc1cccc2c1C(=O)c1c(O)c3c(c(O)c1C2=O)C[C@@](O)(C(=O)CO)C[C@@H]3O[C@H]1C[C@H](N)[C@@H](O)[C@H](C)O1,NCPF 3379,>100 µM
O=C1/C(=C/c2ccc(Cl)cc2)CSc2ccccc21,Farwania,12.5 µg/mL
CCCCOc1ccccc1N1CCN(CCc2nnn(CC(O)(Cn3cncn3)c3ccc(F)cc3F)n2)CC1,LA314,2 µg/mL
O[C@](Cn1cncn1)(Cn1cnc(/C=C/c2ccc(OCC(F)(F)C(F)F)cc2)n1)c1ccc(F)cc1F,TIMM0354,0.39 µg/mL
NC(=O)C1=C(O)OC2=C(CSc3ccccc32)C1c1ccccc1,93/V,100 µg/mL
CN[C@@H]1[C@H](O[C@@H]2OC[C@@H](O)[C@H](O)[C@H]2O)[C@@H](O)[C@H](O[C@H]2c3cc(C)c(C(=O)N[C@H](C)C(=O)O)c(O)c3-c3c(cc4c(c3O)C(=O)c3cc(OC)cc(O)c3C4=O)[C@@H]2O)O[C@@H]1C,D49,0.8 µg/mL
CC[C@H]1/C=C(\C)[C@H](O)[C@H](C)C[C@H](OC)[C@H]2O[C@@](O)(C(=O)C(=O)N3CCCC[C@H]3C(=O)O[C@H](/C(C)=C/[C@@H]3CC[C@@H](O)[C@H](OC)C3)[C@H](C)[C@@H](O)CC1=O)[C@H](C)C[C@@H]2OC,C20,6.25 µg/mL
COc1ccc(CCC(Cn2ccnc2)c2ccc(Cl)cc2Cl)cc1,,<1 µg/mL
COc1ccc(/C=C2\COc3ccc(-c4ccccc4)cc3C2=O)cc1,25,25 µg/mL
COc1ccc(C2Sc3ccccc3C2CO)c(O)c1,93/V,100 µg/mL
O=C1/C(=C/c2ccccc2)CSc2ccc(Cl)cc21,Farwania,6 µg/mL
OCC1c2ccccc2SC1c1ccc(O)cc1O,Farwania,6 µg/mL
COc1nc2c(c(-c3ccc4ccccc4c3)c1C#N)CSc1ccc(Cl)cc1-2,25,25 µg/mL
Cc1ccc(/C=C2\COc3ccccc3C2=O)cc1,25,12.5 µg/mL
Cc1cc(NS(=O)(=O)c2ccc(N)cc2)nc(C)n1,IFM 49624,≥256 µg/mL
CCCCCOc1ccc(-c2cc(-c3ccc(C(=O)N[C@H]4C[C@@H](O)[C@@H](O)NC(=O)[C@@H]5[C@@H](O)[C@@H](C)CN5C(=O)[C@H]([C@H](O)CC(N)=O)NC(=O)[C@H]([C@H](O)[C@@H](O)c5ccc(O)c(OS(=O)(=O)O)c5)NC(=O)[C@@H]5C[C@@H](O)CN5C(=O)[C@H]([C@@H](C)O)NC4=O)cc3)no2)cc1,FMR 8400,64 µg/mL
C[C@@H](n1ccn(-c2ccc(OCC(F)(F)C(F)F)cc2)c1=O)C(O)(Cn1cncn1)c1ccc(F)cc1F,TIMM1740,0.06 µg/mL
COC1CC2CCC(C)C(O)(O2)C(=O)C(=O)N2CCCCC2C(=O)OC(C(C)CC2CCC(O)C(OC)C2)CC(=O)C(C)/C=C(\C)C(O)C(OC)C(=O)C(C)C[C@](C)(N(O)C(=O)NN2CCCCC2)/C=C/C=C/C=C/1C,WILD TYPE,1.56 µg/mL
OC(Cn1cncn1)(Cn1nnc(CCN2CCN(c3cccc(Cl)c3)CC2)n1)c1ccc(F)cc1F,LA314,>16 µg/mL
O=C1/C(=C/c2ccc(F)cc2)CCc2ccccc21,93/V,50 µg/mL
OC(Cn1cncn1)(Cn1nnc(CCN2CCN(c3ccccc3)CC2)n1)c1ccc(F)cc1F,LA314,>16 µg/mL
C[C@@H](N1CCN(c2ccc(F)cc2)C1=O)C(O)(Cn1cncn1)c1ccc(F)cc1F,TIMM1855,0.13 µg/mL

4 of the rows above, restated:

structure | strain | value
O[C@](Cn1cncn1)(Cn1cnc(/C=C/c2ccc(OCC(F)(F)C(F)F)cc2)n1)c1ccc(F)cc1F | TIMM0354 | 0.39 µg/mL
Cc1nnc(NS(=O)(=O)c2ccc(N)cc2)s1 | IFM 49624 | ≥256 µg/mL
Cc1cc(NS(=O)(=O)c2ccc(N)cc2)nc(C)n1 | IFM 49624 | ≥256 µg/mL
O=C1/C(=C/c2ccc3c(c2)OCO3)CSc2ccc(Cl)cc21 | Farwania | 12.5 µg/mL